Compound potency records, mixed from different reports. Data source: NIAID ChemDB in PubChem.

Common to all: tests in culture; agent: Coxsackie virus; cells: HeLa; read-out: EC50

ECn: concentration that inhibits the pathogen or its effect by n%.

SMILES,strain or isolate,method,value
CC(=O)OC1C=COC=C2C[C@@]34SSSS[C@]5(CC6=COC=CC(OC(C)=O)C6N5C3=O)C(=O)N4C21,TYPE A21,-,0.2 µg/mL
O=C(CCCc1ccccc1)N1CC[N+]2(CC1)CC[N+]1(CCN(C(=O)CCCc3ccccc3)CC1)CC2,B3,cytopathic effect,>70 µg/mL
Nc1nc(Cl)c2ncn(C[C@H]3CC[C@@H](CO)C3)c2n1,TYPE B4,cytopathic effect,>10 µg/mL
OC[C@H]1O[C@@H](n2cnc3cc(Cl)c(Cl)cc32)[C@H](O)[C@@H]1O,TYPE B4,cytopathic effect,>10 µg/mL
NC(=O)c1ncn([C@@H]2O[C@H](CO)[C@@H](O)[C@H]2O)n1,TYPE B4,cytopathic effect,40 µg/mL
C[C@H](c1c[nH]c2ccccc12)[C@@H]1SC(=NCCO)NC1=O,TYPE B1,plaque count,16 µg/mL
Cc1cn([C@@H]2CC[C@H](CO)C2)c(=O)[nH]c1=O,TYPE B4,cytopathic effect,>400 µg/mL
NC(=O)c1ncn([C@@H]2O[C@H](CO)[C@@H](O)[C@H]2O)c1C#CCO,TYPE B4,cytopathic effect,10 µg/mL
CCN=C1NC(=O)[C@H]([C@H](C)c2c[nH]c3ccccc23)S1,TYPE B1,plaque count,10 µg/mL
Nc1ccn([C@@H]2C[C@H](CO)[C@@H](O)[C@H]2O)c(=O)n1,TYPE B4,cytopathic effect,>400 µg/mL
Nc1nccc2c1ncn2[C@@H]1C[C@H](CO)[C@@H](O)[C@H]1O,TYPE B4,cytopathic effect,>400 µg/mL
Nc1nccc2c1ncn2[C@@H]1C[C@H](CO)[C@@H](O)[C@H]1O,TYPE B4,cytopathic effect,>400 µg/mL
Cc1cn([C@@H]2C[C@H](CO)[C@H](O)C2)c(=O)[nH]c1=O,TYPE B4,cytopathic effect,>400 µg/mL
Nc1ncnc2c1ccn2[C@H]1C[C@H](O)[C@@H](CO)O1,TYPE B4,cytopathic effect,>400 µg/mL
O=[N+]([O-])c1c(C2CCCCCC2)ncnc1N1CC[N+]2(CC1)CC[N+]1(CCN(c3ncnc(C4CCCCCC4)c3[N+](=O)[O-])CC1)CC2,B3,cytopathic effect,>70 µg/mL
OC[C@H]1O[C@@H](n2cnc3cc(Cl)c(Cl)cc32)[C@@H](O)[C@@H]1O,TYPE B4,cytopathic effect,>10 µg/mL
Cc1cc(N2CC[N+](C)(C)CC2)c([N+](=O)[O-])c(N2CC[N+](C)(C)CC2)c1,B3,cytopathic effect,>70 µg/mL
Nc1nc2c(nnn2C[C@H]2CC[C@@H](CO)C2)c(=O)[nH]1,TYPE B4,cytopathic effect,>200 µg/mL
CC(=O)OC1C=COC=C2C[C@@H]3C(=O)N4C5C(=COC=CC5OC(C)=O)C[C@H]4C(=O)N3C21,TYPE A21,-,20 µg/mL
Nc1nccc2c1ncn2[C@@H]1C[C@H](CO)[C@@H](O)[C@H]1O,TYPE B4,cytopathic effect,>400 µg/mL
CCOC(=O)OC1C=COC=C2C[C@@]34SS[C@]5(CC6=COC=CC(OC(=O)OCC)C6N5C3=O)C(=O)N4C21,TYPE A21,-,0.08 µg/mL
Nc1nccc2c1ncn2[C@@H]1C=C(CO)[C@@H](O)[C@H]1O,TYPE B4,cytopathic effect,>400 µg/mL
Nc1nc(Cl)c2nnn(C[C@H]3CC[C@@H](CO)C3)c2n1,TYPE B4,cytopathic effect,>200 µg/mL
NC(=O)c1csc([C@@H]2O[C@H](CO)[C@@H](O)[C@H]2O)n1,TYPE B4/JVB,cytopathic effect,86 µg/mL
CCCC#Cc1c(C(N)=O)ncn1[C@@H]1O[C@H](CO)[C@@H](O)[C@H]1O,TYPE B4,cytopathic effect,>200 µg/mL
OCCOC(CCO)n1cnc2cc(Cl)c(Cl)cc21,TYPE B4,cytopathic effect,>200 µg/mL
Nc1ncnc2c1ncn2C1CC(CO)[C@@H](O)[C@H]1O,TYPE B4,cytopathic effect,≥10 µg/mL
CN1C(=O)[C@]23CC4=CC=C[C@H](O)[C@H]4N2C(=O)[C@@]1(CO)SSSS3,TYPE A21,-,0.8 µg/mL
O=C(CCCl)NN1CC[N+]2(CC1)CC[N+]1(CCN(NC(=O)CCCl)CC1)CC2,B3,cytopathic effect,>70 µg/mL
CC(=O)OC1C=COC=C2C[C@@]3(S)C(=O)N4C5C(=COC=CC5OC(C)=O)C[C@@]4(S)C(=O)N3C21,TYPE A21,-,5.5 µg/mL
Nc1ncnc2c1ncn2C[C@H](O)CO,TYPE B4,cytopathic effect,>400 µg/mL
NC(=O)c1cn([C@@H]2O[C@H](CO)[C@@H](O)[C@H]2O)c2ncnc(N)c12,TYPE B4,cytopathic effect,≥0.4 µg/mL
Nc1nc(N)c2ncn(C[C@H]3CC[C@@H](CO)C3)c2n1,TYPE B4,cytopathic effect,>200 µg/mL
Nc1ncnc2c1ccn2[C@@H]1C[C@H](CO)[C@@H](O)[C@H]1O,TYPE B4,cytopathic effect,7 µg/mL
Cc1cn([C@H]2C[C@@H]3OC[C@H]2[C@@H]3CO)c(=O)[nH]c1=O,TYPE B4,cytopathic effect,>400 µg/mL
Nc1ncnc2c1ccn2[C@@H]1O[C@H](CO)[C@@H](O)[C@H]1O,TYPE B4,cytopathic effect,0.2 µg/mL
Nc1ncnc2c1c(Br)cn2[C@@H]1O[C@H](CO)[C@@H](O)[C@H]1O,TYPE B4,cytopathic effect,0.2 µg/mL
Nc1ncnc2c1c(Br)cn2[C@@H]1O[C@H](CO)[C@@H](O)[C@H]1O,TYPE B4,cytopathic effect,0.2 µg/mL
Nc1nccc2c1ncn2[C@@H]1C[C@H](CO)[C@@H](O)[C@H]1O,TYPE B4,cytopathic effect,>400 µg/mL
CC(=O)OC1C=COC=C2C[C@H]3C(=O)N4C5C(=COC=CC5OC(C)=O)C[C@H]4C(=O)N3C21,TYPE A21,-,30 µg/mL
OCCOC([C@H](O)CO)n1cnc2cc(Cl)c(Cl)cc21,TYPE B4,cytopathic effect,>200 µg/mL
NC(=O)c1ncn([C@@H]2O[C@H](CO)[C@@H](O)[C@H]2O)c1C#Cc1ccccc1,TYPE B4,cytopathic effect,>200 µg/mL
Cc1cn([C@H]2C[C@@H](CO)[C@H](O)C2)c(=O)[nH]c1=O,TYPE B4,cytopathic effect,>100 µg/mL
CC(C)[Si]1(C(C)C)OC[C@H]2O[C@@H](n3cnc4cc(Cl)c(Cl)cc43)[C@@H](O)[C@H]2O[Si](C(C)C)(C(C)C)O1,TYPE B4,cytopathic effect,>400 µg/mL

A second listing of 5 rows from above:

O=C(CCCl)NN1CC[N+]2(CC1)CC[N+]1(CCN(NC(=O)CCCl)CC1)CC2 ; strain or isolate: B3 ; method: cytopathic effect ; value: >70 µg/mL
NC(=O)c1csc([C@@H]2O[C@H](CO)[C@@H](O)[C@H]2O)n1 ; strain or isolate: TYPE B4/JVB ; method: cytopathic effect ; value: 86 µg/mL
CCOC(=O)OC1C=COC=C2C[C@@]34SS[C@]5(CC6=COC=CC(OC(=O)OCC)C6N5C3=O)C(=O)N4C21 ; strain or isolate: TYPE A21 ; value: 0.08 µg/mL
OCCOC(CCO)n1cnc2cc(Cl)c(Cl)cc21 ; strain or isolate: TYPE B4 ; method: cytopathic effect ; value: >200 µg/mL
NC(=O)c1cn([C@@H]2O[C@H](CO)[C@@H](O)[C@H]2O)c2ncnc(N)c12 ; strain or isolate: TYPE B4 ; method: cytopathic effect ; value: ≥0.4 µg/mL

Rows are shuffled and stem from different studies. Blank or dashed fields: not listed here.